Measurements: patent US20060051359A1

Biological target: 8H9 antigen (human) (UniProt Q5ZPR3)
Experiment: cell-based or functional assay

## 8H9(dsFv)-PE38
  IC50 on the MCF-7 cell line: 0.08 nM
